In patent publication US5817692A, “Endoperoxides useful as antiparasitic agents” (priority 1996, dated 1998):

What follows are molecules tested on Toxoplasma gondii (assay: inhibition of intracellular replication of T. gondii in infected L929 cells, uracil incorporation assay). Settings: 1 μM.
Assay type: cell-based
Experimental: Toxoplasma gondii is the causative agent of cerebral toxoplasmic encephalitis, an AIDS-related opportunistic infection. The biological activity of the endoperoxide JHU 2886 of the present invention was measured against Toxoplasma gondii cultured in L929 cells. The inhibitory activity of the synthetic organic endoperoxide was tested by measuring the intracellular replication of T. gondii in infected L929 cells. The inhibition of the intracellular replication of T. gondii was determined using the uracil incorporation assay (20). […] This compound is referred to as JHU 2886 in Table 1. In this experiment atovaquone and artemisinin were used as positive controls. Atovaquone is a broad-spectrum anti-infective drug having antimalarial and antitoxoplasmosis activity (19). | measured using the MTT assay (Promega kit) and inhibition of the | intracellular replication of T. gondii was determined using the uracil | incorporation assay.

SMILES | therapeutic index (ratio of activity to toxicity), as activity/toxicity
C[C@@H]1CC[C@H]2[C@@H](C)C(=O)O[C@@H]3O[C@@]4(C)CC[C@@H]1[C@]32OO4 [Artemisinin] | 76/10
O=C1C(O)=C([C@H]2CC[C@H](c3ccc(Cl)cc3)CC2)C(=O)c2ccccc21 [Atovaquone] | 95/17
c1ccc(C23CCCC(c4ccccc4)(CC2)OO3)cc1 [JHU 2886] | 70/0
